Compound potency records, mixed from different reports. Data source: NIAID ChemDB in PubChem.

Shared fields: growth or infection tests; agent: Mycobacterium tuberculosis

Percent inhibition refers to the dose given; in toxicity tests it is the harm to the cells.

compound,mutations,cells,strain or isolate,method,tested at,endpoint,value
O=C(O)c1cn(C2CC2)c2cc(N3CCNCC3)c(F)cc2c1=O,-,-,30 isolates/HIV+,-,-,MIC50,4 µg/mL
CCCCC1CCCCCCc2[nH]c(/C=C3\N=C(c4ccc[nH]4)C=C3OC)cc21.Cl,-,-,KM-R,-,-,MIC,6.3 µg/mL
Nc1ncnc2c1cnn2Cc1cn(COCCO)nn1,-,-,H37Rv,BACTEC,-,EC50,>12.5 µg/mL
CC1=CC[C@]2(C)CC(=O)[C@@]3(C)[C@H](C(C(C)C)=C[C@@H]3O)[C@H]2CC1,-,-,-,-,-,MIC,6.25 µg/mL
Cc1c(CN2CCN(C)CC2)cc(-c2ccc(Cl)cc2)n1-c1ccc(Cl)cc1,-,-,103471,-,-,MIC,0.7 µg/mL
NCC[C@H](O)C(=O)N[C@@H]1C[C@H](N)[C@@H](O[C@H]2O[C@H](CN)[C@@H](O)[C@H](O)[C@H]2O)[C@H](O)[C@H]1O[C@H]1O[C@H](CO)[C@@H](O)[C@H](N)[C@H]1O,-,-,TN3432 (W),-,-,MIC,>256 µg/mL
COc1cc2c(cc1O)CCN[C@]21CS[C@@H]2c3c(C(C)=O)c(C)c4c(c3C(COC1=O)N1C2[C@H]2c3c(cc(O)c(OC)c3O)C[C@@H]([C@@H]1C#N)N2C)OCC4,-,-,-,-,-,MIC,0.13 µg/mL
Cc1ccnc2c1N(C(=O)CNNC(=O)c1ccncc1)C(=O)c1cccnc1N2C1CC1,-,-,H37Rv (ATCC 27294),BACTEC,-,EC50,90 µg/mL
CCC[N+]1=C/c2ccccc2OC(=O)/C=C\1[O-],-,-,H37Rv,BACTEC,12.5 µg/mL,inhibition,33%
CC(C)(C)OCOC(=O)c1cnccn1,-,-,KK11-20,-,-,MIC,50 µg/mL
CC1COc2c(N3CCN(C)CC3)c(F)cc3c(=O)c(C(=O)O)cn1c23,-,-,891868,-,-,MIC,1 µg/mL
NNC(=O)c1ccncc1,-,-,H37Rv,-,-,MIC,0.3 µg/mL
O=C(N/N=C/c1c(O)cccc1O)c1cccnc1.[Cl][Fe][Cl],-,-,H37Rv,broth dilution / resazurin,-,MIC,0.76 µg/mL
CSc1ncnc2c1cnn2Cc1cnnn1COCCO,-,-,H37Rv,BACTEC,-,EC50,>12.5 µg/mL
CCCCCCCCCC/C(C)=N/NC(=O)c1ccc[n+](C)c1.Cc1ccc(S(=O)(=O)O)cc1,-,-,H37Rv,BACTEC,-,MIC bound,>12.5 µg/mL
OCCOCn1cc(Cn2ncc3c(SCc4ccccc4)ncnc32)nn1,-,-,H37Rv,BACTEC,-,EC50,<6.25 µg/mL
CCOC(=O)c1c(N)c(=O)oc2c3c(c(O)cc12)OCO3,-,-,H37Rv,BACTEC,-,MIC bound,>12.5 µg/mL
CCOC(=O)Cc1csc(/N=C2/NC(=O)C(C)S2)n1,-,-,H37Rv,-,-,MIC,>12.5 µg/mL
N#CC12C3C4C5C3C1C(C42)n1c(=O)n(-c2ccccc2)c(=O)n15,-,-,H37Rv,resazurin,6.25 µg/mL,inhibition,-9%
O=C(Nc1ccccc1)N1CCc2c(c(-c3ccccc3)nn2Cc2cn(-c3ccc4c(c3)OCO4)nn2)C1,-,-,H37Rv,visual reading,-,MIC,192 µM
Cc1cc2c(cc1C)[n+]([O-])c(-c1nc3ccccc3s1)c(N)[n+]2[O-],-,-,ETA-R,-,-,MIC,12.5 µg/mL
Cc1cc(CN2CCN(C)CC2)c(C)n1C1CCCCC1,-,-,103471,-,-,MIC,8 µg/mL
Cc1cc(Cc2cc(C)c(NC(=O)C(=O)C3CCC4=C(SC5C=CC=CC5N4)C3=O)c(C(C)C)c2)cc(C(C)C)c1NC(=O)C(=O)C1CCC2=C(SC3C=CC=CC3N2)C1=O,-,-,H37Rv,BACTEC,-,MIC bound,>12.5 µg/mL
CCOC(=O)Cc1csc(/N=C2/NC(=O)/C(=C\c3ccc([N+](=O)[O-])o3)S2)n1,-,-,H37Rv,-,-,EC50,<12.5 µg/mL
CC(C)=CCC[C@H](C)[C@H]1CC[C@H](C)c2ccccc21,-,-,-,-,-,MIC,12.5 µg/mL
NC(=S)c1cnccn1,-,-,KK11-20,-,-,MBC,100 µg/mL
CCc1cn(C2OC(COC(C)=O)C(OC(C)=O)C2F)c(=O)[nH]c1=O,-,-,H37Ra,resazurin,-,MIC55,50 µg/mL
CCNc1nnc(-c2ccc(NC(=S)Nc3ccccc3)cc2)s1,-,-,H37Rv,-,6.25 µg/mL,inhibition,6%
CC(=O)Nc1cc(C)[nH]c(=O)c1-c1ccccc1,-,-,H37Ra,-,-,MIC,>256 µg/mL
O=C(Nc1ccccc1)N1CCc2c(c(-c3ccccc3)nn2Cc2cn(-c3ccc(Cl)c(Cl)c3)nn2)C1,-,-,H37Rv,visual reading,-,MIC,184 µM
CC(=O)Nc1ccc(/C=C(\NC(=O)c2ccccc2)c2nc3ccc4c(c3[nH]2)C(=O)c2ccccc2C4=O)cc1,-,-,H37Rv,resazurin,-,MIC bound,>6.25 µg/mL
CO[C@@H]1C/C=C\C=C\C[C@H](C)[C@@H](O)C[C@@H](O)[C@H](C)[C@H](O)CC(=O)O[C@H]([C@H](C)[C@H](O)/C=C(\C)CC/C=C/C=C/CC(O)CC(C)CCC(=O)O)C[C@H](O)CCC1,katG mutant isoniazid resistant,-,HUG.MI.1020,resazurin / absorbance,-,MIC,2.3 µg/mL
O=C(N/N=C/c1cc(O)ccc1O)c1cccnc1,-,-,H37Rv,broth dilution / resazurin,-,MIC,1.04 µg/mL
CCCCCc1nc2c(C)c3c4c(c2o1)[C@@H](C)CC[C@@H]4[C@@H](C)C[C@H]3C=C(C)C,-,-,-,-,-,MIC,12.5 µg/mL
c1ccc(-c2oc3ccc4ccccc4c3c2-c2ccc(OCCN3CCCC3)cc2)cc1,-,VERO,H37Rv,-,-,MIC,1.6 µg/mL
COC1=C(Br)CC2(OC=C1Br)ON=C(C(=O)NCCCOc1c(Br)cc(CCN)cc1Br)[C@@H]2O,-,-,-,-,-,EC50,30 µM
O=C(Nc1ccccc1)N1CCc2c(c(-c3ccccc3)nn2Cc2cn(-c3ccc(I)cc3)nn2)C1,-,-,H37Rv,visual reading,-,MIC,166 µM
CCOC(=O)Cc1csc(/N=C2/NC(=O)C(CC)S2)n1,-,-,H37Rv,-,-,MIC,>12.5 µg/mL
O=c1[nH]c(=S)c(CO)cn1C1OC(CO)C(O)C1O,-,-,H37Ra,resazurin,-,MIC70,5 µg/mL
CC1(C)Oc2ccc3c(=O)c4ccccc4oc3c2C1C(=O)O,-,-,H37Rv,BACTEC,-,MIC bound,>12.5 µg/mL
CC(C)C[C@@H]1NC(=O)[C@H](Cc2c[nH]c3ccccc23)NC(=O)[C@H](CCCCN)NC(=O)[C@H](CC(N)=O)NC(=O)[C@H](C(C)C)NC(=O)[C@@H](CC(C)C)NC1=O,-,-,H37Rv,turbidity,-,MIC90,>30 µM
Cc1cc(O)c(-c2ccc(F)cc2)c(=O)[nH]1,-,-,H37Ra,-,-,MIC,64 µg/mL
COC(=O)C1CC23CC45CC6C(C)CN(CC7CC(OC(C)=O)(CC8=C2C1CC8)CC73C4OC(C)=O)C65O,-,-,H37Rv,BACTEC,-,MIC,≥12.5 µg/mL
C=C[C@](O)(CC[C@@H](C)[C@H]1CC[C@H]2[C@@H]3CC=C4C[C@@H](O)CC[C@]4(C)[C@H]3CC[C@]12C)C(C)C,-,-,-,-,-,MIC,1 µg/mL
CCn1cc(C(=O)O)c(=O)c2cc(F)c(N3CCN(CC(=O)N4C(=O)c5cccnc5N(C5CC5)c5nccc(C)c54)CC3)cc21,-,-,H37Rv (ATCC 27294),BACTEC,-,EC50,76 µg/mL
C/C(=N\Nc1ccc([N+](=O)[O-])cn1)c1ccccn1,-,-,H37Rv,BACTEC,-,MIC bound,>12.5 µg/mL
Cc1c(CN2CCN(C)CC2)c(CN2CCN(C)CC2)c(-c2ccc(Cl)cc2)n1C1CCCCC1,-,-,103471,-,-,MIC,8 µg/mL
CNc1ncnc2c1cnn2Cc1cnnn1COCCO,-,-,H37Rv,BACTEC,-,EC50,>12.5 µg/mL
C=C(CC[C@@H](C)[C@H]1CC[C@@H]2[C@H]3[C@@H](OC(C)=O)C=C4C[C@@H](O)CC[C@]4(CO)[C@@H]3CC[C@@]21C)C(C)C,-,-,-,-,-,MIC,12.5 µg/mL
CCCCCCn1c(C)c(CN2CCOCC2)c(CN2CCOCC2)c1-c1ccc(Cl)cc1,-,-,103471,-,-,MIC,8 µg/mL
O=S(=O)([O-])C1=CC(=N/Cl)/C=CC/1=N\Cl.[Na+],-,-,H37Rv,BACTEC,12.5 µg/mL,inhibition,-21%
COc1ccc(Nc2nnc(-c3ccc(NC(=S)Nc4ccccc4)cc3)s2)cc1,-,-,H37Rv,-,-,EC50,>6.25 µg/mL
CC(C)C[C@@H]1NC(=O)[C@H](Cc2c[nH]c3ccccc23)NC(=O)[C@@H](CCCCN)NC(=O)[C@H](CC(N)=O)NC(=O)[C@H](C(C)C)NC(=O)[C@@H](CC(C)C)NC1=O,-,-,HN353,turbidity,-,EC50,0.32 µM
CCCCCCCCOC(=O)C12Oc3ccc(Cc4ccc5c(c4O)C(O)=C4C(=O)CC(C)C(O)C4(C(=O)OCCCCCCCC)O5)c(O)c3C(O)=C1C(=O)CC(C)C2O,-,-,H37Rv,BACTEC,12.5 µg/mL,inhibition,0%
CO[C@H]1/C=C/O[C@@]2(C)Oc3c(C)c(O)c4c(O)c(c(/C=N/N5CCN(C)CC5)c(O)c4c3C2=O)NC(=O)/C(C)=C\C=C\[C@H](C)[C@H](O)[C@@H](C)[C@@H](O)[C@@H](C)[C@H](OC(C)=O)[C@@H]1C,-,-,PR819,-,-,MIC,0.04 µg/mL
CC(C)C[C@@H]1NC(=O)[C@H](Cc2c[nH]c3ccccc23)NC(=O)[C@@H](CCCN=C(N)N)NC(=O)[C@H](CC(N)=O)NC(=O)[C@H](C(C)C)NC(=O)[C@@H](CC(C)C)NC1=O,-,-,CDC1551,turbidity,-,MIC90,0.99 µM
S=C(Nc1ccccc1)Nc1ccc(-c2nnc(Nc3ccccc3)s2)cc1,-,-,H37Rv,-,-,EC50,>6.25 µg/mL
CCCCCCn1c(C)c(CN2CCOCC2)c(CN2CCOCC2)c1C,-,-,103471,-,-,MIC,>64 µg/mL
CCc1nn(CCCN2CCN(c3cccc(Cl)c3)CC2)c(=O)n1CC.Cl,-,-,H37Rv,BACTEC,12.5 µg/mL,inhibition,24%
CC(C)C[C@@H]1NC(=O)[C@H](Cc2c[nH]c3ccccc23)NC(=O)[C@@H](CCCN)NC(=O)[C@H](CC(N)=O)NC(=O)[C@H](C(C)C)NC(=O)[C@@H](CC(C)C)NC1=O,-,-,CDC1551,turbidity,-,EC50,1.82 µM
S=C(Nc1nc2ccccc2s1)SSC(=S)Nc1nc2ccccc2s1,-,-,H37Rv,BACTEC,-,MIC,8 µg/mL
Cc1cc(O)c(-c2ccc(Cl)cc2Cl)c(=O)[nH]1,-,-,H37Ra,-,-,MIC,>256 µg/mL
Cc1cccc(/C=N/NC(=S)N(C)C)n1.[Cl][Cu][Cl],-,-,R506,-,-,MIC90,0.78 µM
Cc1cc(O)c(-c2ccccc2)c(=O)n1C1CCCCC1,-,-,H37Ra,-,-,MIC,64 µg/mL
Cc1ccc(S(=O)(=O)NNC(=O)c2cc(C)c(C)cc2NCC(O)C(O)C(O)CO)cc1,-,-,H37Rv,BACTEC,12.5 µg/mL,inhibition,2%
C=C(CC[C@@H](C)[C@H]1CC[C@@H]2[C@H]3CC=C4C[C@@H](O)CC[C@]4(CO)[C@@H]3CC[C@@]21C)C(C)C,-,-,-,-,-,MIC,3.13 µg/mL
C[C@H]1COc2c(N3CCN(C)CC3)c(F)cc3c(=O)c(C(=O)O)cn1c23,-,-,55 isolates,-,-,EC50,<1 µg/mL
NNC(=O)c1ccncc1,-,-,CF45,resazurin,-,MIC,>25 µg/mL
O=C(Nc1ccccc1)N1CCc2c(c(-c3ccccc3)nn2Cc2cn(-c3ccc(F)c(F)c3)nn2)C1,-,-,H37Rv,visual reading,-,MIC,195 µM
S=C(Nc1ccccc1)Nc1ccc(-c2nnc(Nc3ccc(Cl)cc3)s2)cc1,-,-,H37Rv,-,6.25 µg/mL,inhibition,32%
O=c1nnc2c3ccccc3[nH]c2n1-c1ccccc1,-,-,H37Rv,resazurin,-,MIC bound,>6.25 µg/mL
CC1Cn2cnc([N+](=O)[O-])c2O1,-,-,H37Rv,-,-,MIC,>10 µg/mL
CN1CC(=O)N2CCCCC2C(c2ccccc2)C1,-,-,H37Rv,BACTEC,-,MIC bound,>12.5 µg/mL
Cc1nc([N+](=O)[O-])c2n1CC(C)O2,-,-,H37Rv,-,-,MIC,>10 µg/mL
CCc1cn(C2OC(CO)C(Br)C2F)c(=O)[nH]c1=O,-,-,H37Ra,resazurin,-,MIC78,100 µg/mL
COCCCC12C=C(OC)C(=O)C=C1OC(c1cc(OC)c(OC)c(OC)c1)C2C,-,-,H37Rv,BACTEC,12.5 µg/mL,inhibition,19%
C#CCn1ncc2c(SC)ncnc21,-,-,H37Rv,BACTEC,-,EC50,<12.5 µg/mL
Cc1cc(NC(=O)C(F)(F)F)c(-c2ccccc2)c(=O)[nH]1,-,-,H37Ra,-,-,MIC,>256 µg/mL

The last 5 rows once more:

Cc1nc([N+](=O)[O-])c2n1CC(C)O2 ; strain or isolate: H37Rv ; endpoint: MIC ; value: >10 µg/mL
CCc1cn(C2OC(CO)C(Br)C2F)c(=O)[nH]c1=O ; strain or isolate: H37Ra ; method: resazurin ; endpoint: MIC78 ; value: 100 µg/mL
COCCCC12C=C(OC)C(=O)C=C1OC(c1cc(OC)c(OC)c(OC)c1)C2C ; strain or isolate: H37Rv ; method: BACTEC ; tested at: 12.5 µg/mL ; endpoint: inhibition ; value: 19%
C#CCn1ncc2c(SC)ncnc21 ; strain or isolate: H37Rv ; method: BACTEC ; endpoint: EC50 ; value: <12.5 µg/mL
Cc1cc(NC(=O)C(F)(F)F)c(-c2ccccc2)c(=O)[nH]1 ; strain or isolate: H37Ra ; endpoint: MIC ; value: >256 µg/mL

MIC bound: limit read from a one-dose screen. ECn is the concentration giving n% inhibition of infection, replication or growth. Lines come from different laboratories, so protocols vary. An empty or dashed field is not shown. A number after MIC or MFC names an inhibition level or a share of isolates.